Compound potency records, mixed from different reports. Data source: NIAID ChemDB in PubChem.

All rows: tests in culture; organism: Hepatitis C virus; read by: replicon; read-out: EC90

An empty or dashed field is not shown.

SMILES,cells,strain or isolate,setting,value
CC(C)(C)C(NC(=O)N[C@H](C(=O)N1C[C@H]2C([C@H]1C(=O)NC(CC1CC1)C(=O)C(N)=O)C2(C)C)C1Cc2ccccc2C1)C(=O)O,-,-,-,4.1 µM
COc1ncnc2c1ccn2[C@@H]1O[C@H](CO)[C@@H](O)[C@@]1(C)F,CEM,-,-,>10 µM
COc1c(C(C)(C)C)cc(-n2ccc(=O)[nH]c2=O)c2ncc(-c3ccc(NS(C)(=O)=O)cc3)cc12,Huh7,GT-1b Con1,40% human serum,0.047 µM
Nc1ncnc2c1ncn2[C@H]1O[C@H](CO)[C@@H](F)[C@@H]1F,Huh7,-,-,>10 µM
CC(C)(C)OC(=O)[C@@H](NC(=O)N[C@H](C(=O)N1C[C@H]2C([C@H]1C(=O)NC(CC1CC1)C(=O)C(=O)NCCc1ccccc1)C2(C)C)C(C)(C)C)C(C)(C)C,-,-,-,14 µM
COC(=O)N[C@H](C(=O)N1CCC[C@H]1c1ncc(-c2ccc(-c3cnc([C@@H]4CCCN4C(=O)[C@@H](NC(=O)OC)C(C)C)[nH]3)cc2)[nH]1)C(C)C,Huh7,1b replicon,-,0.001 µM
CC(C)(C)OC(=O)[C@@H](NC(=O)N[C@H](C(=O)N1C[C@H]2C([C@H]1C(=O)NC(CC1CC1)C(=O)C(N)=O)C2(C)C)C1Cc2ccccc2C1)C(C)(C)C,-,-,-,0.4 µM
Nc1ncnc2c1ncn2[C@@H]1O[C@H](CO)[C@@H](F)[C@@H]1F,Huh7,-,-,10 µM
C[C@@]1(F)[C@H](O)[C@@H](CO)O[C@@H]1n1cc(C#Cc2ccccc2)c2c(N)ncnc21,CEM,-,-,>10 µM
O=c1ccc2nnn3c2n1[C@@H]1O[C@H](C3)[C@@H](O)[C@H]1O,Huh7,-,-,70 µM
C[C@@]1(F)[C@H](O)[C@@H](CO)O[C@@H]1n1cc(I)c2c(N)nc(N)nc21,CEM,-,-,>10 µM
CC(C)[C@H](NC(=O)N[C@H](C(=O)N1C[C@H]2C([C@H]1C(=O)NC(CC1CC1)C(=O)C(N)=O)C2(C)C)C(C)(C)C)C(=O)C(C)(C)C,-,1,-,2 µM
CCc1cn([C@H]2O[C@H](CO)[C@@H](O)[C@@]2(C)F)c2ncnc(N)c12,CEM,-,-,>10 µM
O=c1nc(NO)ccn1[C@@H]1O[C@H](CO)[C@@H](O)[C@H]1F,Huh7,-,-,>100 µM
O=c1ccn([C@@H]2O[C@H](CO)[C@@H](O)[C@H]2F)c(=O)[nH]1,MDBK,-,-,>100 µM
C[C@@]1(F)[C@H](O)[C@@H](CO)O[C@H]1n1cc(Br)c2c(N)ncnc21,CEM,-,-,>10 µM
C=CCNC(=O)C(=O)C(CCCC)NC(=O)[C@@H]1C2[C@H](CN1C(=O)[C@@H](NC(=O)N[C@H](C(=O)OC(C)C)C(C)(C)C)C(C)(C)C)C2(C)C,-,-,-,0.8 µM
CNc1ncnc2c1c(F)cn2[C@@H]1O[C@H](CO)[C@@H](O)[C@@]1(C)F,CEM,-,-,>10 µM
Clc1ncnc2c1ncn2C1C[C@H]2C[C@@H]1c1cscc12,Huh,1b,-,>16 µM
COC(=O)N[C@@H](CC(C)C)C(=O)N1CCC[C@@H]1c1ncc(-c2ccc(-c3ccccc3)cc2)[nH]1,Huh7,1b,-,>1 µM
C=Cc1cn([C@@H]2O[C@H](CO)[C@@H](O)[C@@]2(C)F)c2ncnc(N)c12,CEM,-,-,>10 µM

For reference, 3 entries again:

SMILES | cells | strain or isolate | setting | value
COC(=O)N[C@H](C(=O)N1CCC[C@H]1c1ncc(-c2ccc(-c3cnc([C@@H]4CCCN4C(=O)[C@@H](NC(=O)OC)C(C)C)[nH]3)cc2)[nH]1)C(C)C | Huh7 | 1b replicon | - | 0.001 µM
C[C@@]1(F)[C@H](O)[C@@H](CO)O[C@@H]1n1cc(C#Cc2ccccc2)c2c(N)ncnc21 | CEM | - | - | >10 µM
COc1c(C(C)(C)C)cc(-n2ccc(=O)[nH]c2=O)c2ncc(-c3ccc(NS(C)(=O)=O)cc3)cc12 | Huh7 | GT-1b Con1 | 40% human serum | 0.047 µM

Lines come from different laboratories, so protocols vary. ECn: concentration that inhibits the pathogen or its effect by n%.